# “And” between values parts separate entries of the source, which are not always exact repeats. Equal values may be shown once.
# System: Aβ1-40 peptide
# Experiment: Brain Aβ1-40 by sandwich ELISA in double transgenic mice after 21 day razoxane treatment
# Type: in vivo
# Conditions: individual mouse cerebral cortex sample
# Procedure: Double transgenic male mice (APP Swedish mutation+PS1 mutation) express human amyloid precursor protein (APP) and amyloid-β peptide (Aβ) within their brain and form amyloid depositions from 4 months onward. Razoxane (ICRF 159) was administered by intraperitoneal (i.p.) injection once daily for 21 consecutive days to a group of such mice, 5 to 6 months of age and approximately 22 to 28 g in weight. […] Within three hours of the final razoxane/vehicle administration, animals were killed, their brain exposed and a 50-80 mg sample of cerebral cortex collected and frozen at […].
structure (smiles),measurement,setting,value
"CC(CN1CC(=O)NC(=O)C1)N1CC(=O)NC(=O)C1 (racemic) [Razoxane, 1,2-bis(3,5-dioxopiperazin-1-yl)-propane]","OD, Aβ1-40",razoxane 20 mg/kg i.p. once daily x 21 days,2.099 and 2.88 and 2.787 and 3.12 and 1.837 and 3.923
same,"OD, Aβ1-40",razoxane 30 mg/kg i.p. once daily x 21 days,0.781 and 2.035 and 1.888 and 0.563 and 0.596 and 1.415

# From patent US20100144704A1, “Method of reducing amyloid-beta peptide levels using a bisdioxopiperazine” (priority 2006, published 2010)
